Measured values published in PMC8113354.

System: GST-FgRbp1 (Fusarium graminearum PH-1)
Assay: EMSA
Settings: 2 uM RNA, 5 uM protein; recombinant protein; protein details: N-term GST (pGEX4T-3)

Sequence	binding result
CAAGACAAGACAAGACAAGACAAGACAAGA [(CAAGA)6]	binds
CAAGGCAAGGCAAGGCAAGGCAAGGCAAGG [(CAAGG)6]	binds

For at least one entry, the source does not settle the construct or the ends of the probe.
